{"source": "paper PMC3989844", "about": "(Journal of pharmaceutical sciences, 2014)", "key": {"[1]": {"conditions": "no reference given; cited from earlier work"}, "[2]": {"type": "physicochemical"}}, "data": [{"substance": "maraviroc", "values": [{"measurement": "aqueous solubility", "setting": "[1]", "result": 1000, "unit": "µg/mL"}, {"measurement": "solubility in DMS S12 PDMS relative to emtricitabine", "setting": "[2]", "result": 100, "unit": "fold"}, {"measurement": "solubility in cyclomethicone", "setting": "[2]; below HPLC limit of detection, equilibrated at 18 ± 1 °C", "result": "< 5.0", "unit": "µg/mL"}, {"measurement": "solubility in st-PDMS relative to emtricitabine", "setting": "[2]; comparable percentage hydroxyl group values", "result": "up to 100 fold"}, {"measurement": "solubility in DMS S12", "setting": "[2]; shake flask, equilibrated at 18 ± 1 °C", "result": 60000, "unit": "µg/mL"}]}]}
